In the supplement of paper PMC9931576:
Human monoclonal antibodies against the spike receptor-binding domain (heavy:light variable regions). IC50 against pseudoviruses bearing the spike of naturally observed variants; lower = stronger; >10 µg/ml means not reached at the top dose. No active / inactive call. The stated detection limit is 0.0005 µg/ml; values near or below 0.001 µg/ml lie at the floor of the assay.

B1: BD55-6708 (protein)
chain 1: QVQLVESGGGVVQPGRSLRLSCAASGFTFSAYDIHWVRQAPGKGLEWVAVISYDGGIKFYADSVKGRFTISRDNSKNMLYLQMNTLRAEDTAMYYCAKEQTYDTLTGLYYFDQWGQGTLVTVSS
chain 2: DIQMTQSPSSLSASVGDSVTITCRASQSISRHLNWYQQKPGKAPKLLIYAASSLQSGVPSRFSGSGSGTDFTLTVSSLQPEDFATYYCQQSFSTPQITFGPGTKVDIK
B2: BD55-6702 (protein)
chain 1: QLQLQESGSGLVKPSQTLSLTCAVSGGSISSGVYSWSWLRQPPGKGLEWIGYIYHSGSTYYNASLRSRVTISVDRSENQFSLRLNSVTAADTAVYFCARESSTSGFYYFDYWGQGTLVTVSS
chain 2: DIQMTQTPSSLSASVGDRVTITCRASQSITMYLNWYQQKSGKAPKFLIYAASNLQSGVPSRFSGSGSGTDFTLTISSLQPEDFATYFCQQSYTTPYTFGQGTKLEIK
B3: BD55-6690 (protein)
chain 1: EVQLVQSGAEVKKPGESLKISCQGSGYDFTSYWIGWVRQMPGKGLEWMGIIYPGDSDSKYNPSFQGQVTISADKSVSTAYLQWSSLKASDTGIYYCVRHISGGRHCSGGSCYTPPYNAMDIWGLGTTVTVSS
chain 2: YVLTQPPSVSLAPGGTARIPCGGSGIGSKSVHWYQQRPGQAPVLVVHDDTARPSGIPERFSGSNSGNTATLTITRVEAGDEADYYCQVWDNTSDHPVFGGGTKLTVL
B4: BD55-6696 (protein)
chain 1: EVQLVQSGAELKKPGESLRISCQASGYRFTNFWITWVRQTPGKGLEWMGRMDPTDSYAKYSPSFQGHVTFSADKSISTAYLQWSSLKASDTGTYYCARQLCGGDCPIDSWGPGTLVTVSS
chain 2: DIQMTQSPSSVSASVGDRVTITCRASQGIRDYLAWFQQRPGEAPKSLIYTASSLHSGVPFRFSGSGSGTDFTLTISSLQPEDFATYYCQQYDTYPPTFGPGTKVEIK
B5: BD55-1338 (protein)
chain 1: QITLKESGPTLVKPTQTLTLTCTFSGFSLTTRGVGVGWIRQPPGKALEWLALIFWNDDNRYSPSLKSRLTITRDTSKNQVVLTMTNMDPVDTGTYYCAHKSRDSELMVYVDDYYFDYWGQGTLVTVSS
chain 2: AHELTQPPSVSVSPGQTARITCSGDSLPMQYVYWYQQRPGQAPVVVIYKDSERPSGIPERFSGSTSGTTVTLTITGVQAEDEADYYCQTADSSGTSFGGGTKLTVL
B6: BD55-6715 (protein)
chain 1: QMQLVQSGPEVKKPGTSVKVSCQASGFTFTSSAVQWVRQARGQRLEWIGWIVVGSGNANYAQKFQGRVAITRDTSTSTASMELSSLRSDDTAVYYCAATDFYQDVMTGHYHLDYYGTDVWGQGTTVTVSS
chain 2: QSVLTQPPSASATPGQGITISCSGSSSNIGTNTVNWYRQFPGTAPKLLLYGHNQRPSGVPDRFSGSKSGTSASLAISGLQSEDEADYYCAAWDDTLNAYVFGTGTTVTVL
B7: BD55-6720 (protein)
chain 1: QLQQSGPGLVKPSQTLSLTCAISGDTVSSDSAAWIWIRQSPSRGLQWLGRTYFTSKWHNEYAESVKSRMTIRPDTSRNQFSLQLTSVTHDDTAIYFCARAQRETTCNGARCYSYYYHGMDVWGQGTTVTVSS
chain 2: EIVLTQSPGTLSMSPGEEATLSCRASQSVTSTYLAWYQQKHGQAPRLLIYGASSRAPGIPDRFSGSGSGTEFTLTISRLEPEDFAVYHCHHDGSTPPAFGGGTKVEIK
B8: BD55-6701 (protein)
chain 1: QVQLVQSGAEVKKPGSSVKVSCKASGGTFHAISWVRQAPGQGLEWMGRIITMFGTTNYAQKFQGRVTITADNMELNNLTSDDTAVYYCARDLRGADYDLLTGYYPGGWFDPWGRGTLVTVSS
chain 2: YVLTQSPSVSVAPGKTATISCGGDNIGSNSVQWYQQKPGQAPVLVIYYDNNRPSGIPERFSGSNSGNTATLTISRVEAGDEADFYCQVWDSTTNHQVFGGGTRLSVL
B9: BD55-6700 (protein)
chain 1: QVYLVQSGGEVKQPGASVTVSCKTSGYTFTNYGINWLRQAPGQGLEWMGWISGYNGNTNYAQKFQDRVTLTTDTSTGTAYMDLKSLRSDDTATYYCARDANHDGTGHHYRGGPFNWFDPWGQGTLVTVSS
chain 2: QSVLTQPPSASGTPGQRVTISCTGSYSNIGSNYVNWYQQLPGTAPKLLIYMNDQRPSGVPDRFSGSKSGASASLAISGLRSEDEAHYYCTAWDDSPSGPWVFGGGTKLTVL
B10: BD55-6713 (protein)
chain 1: QVQLVQSGAEVKKPGSSVKVSCKASGGTFSRYAISWVRQAPGQGLEWLGGIIPTFATTNYAQKFQGRVTITADESASTAYMELSSLRSGDTAVYYCARTIILQYYDYNGYHYPFDLWGQGTLVTVSS
chain 2: EIVLTQSPGTLSLSPGERATLSCRASQSVSSNYLAWYQQKPGQAPSLLIYDTSSRATGIPDRFSGSGSGTDFTLTISRLEPEDFAVYYCQHYGSSPGTFGQGTKLEIK
B11: BD55-6703 (protein)
chain 1: EVQLVESGGGLVQPGGSLRLSCAASGFTFSRHPMHWVRQAPGKGLEYVSAITSNGGGTFYANSVKGRFTISRDNSKNTLYLQMGSLTTEDMALYYCAREVAGNQLPYLVFDIWGRGTMVIVSS
chain 2: DIQMTQSPSSLSAFIGDRVTITCRASQTIGTYLNWYQHKPGEAPKLLIYGASNLQSGVPSRFSGSGSGTAFTLTISSLRVEDLATYYCQQSYTTPQYTFGQGTKLEIK
B12: BD55-6726 (protein)
chain 1: QMQLVQSGPEVKRPGTSVKVSCEASGFTFSSSAILWVRQPRGQRLESIGWMAVGGADRNYASRFQERVTLTTDMSTSTAYMELSGLRSEDTAVYYCAAMVRGGWWYFDLWGRGTLVTVSS
chain 2: EIVLRQSPATVSLSPGERATLSCRASQSVHNYLAWFQQKPGQAPRLLIYDASTRATDIPAKFSGSGSGTDFTLTIGNLEPEDFAVYYCQQRSDWPWTFGQGTKVEIK

target: SARS-CoV-2 Omicron BA.1 spike pseudovirus; experiment: pseudovirus neutralization IC50; higher = weaker neutralization
Method: (§1)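 Single-round VSV luciferase pseudovirus mixed with antibody dilutions for 1 h and put on Huh-7 cells for about a day; IC50 from the dose curve.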

Binder	pseudovirus neutralization IC50
B1	> 10 µg/mL
B2	> 10 µg/mL
B3	> 10 µg/mL
B4	> 10 µg/mL
B5	5.01 µg/mL
B6	> 10 µg/mL
B7	> 10 µg/mL
B8	> 10 µg/mL
B9	> 10 µg/mL
B10	> 10 µg/mL
B11	> 10 µg/mL
B12	> 10 µg/mL

target: SARS-CoV-2 Omicron BA.2 spike pseudovirus; experiment: as above
Method: as §1

Binder	pseudovirus neutralization IC50
B1	> 10 µg/mL
B2	> 10 µg/mL
B3	> 10 µg/mL
B4	> 10 µg/mL
B5	5.43 µg/mL
B6	> 10 µg/mL
B7	> 10 µg/mL
B8	> 10 µg/mL
B9	> 10 µg/mL
B10	> 10 µg/mL
B11	> 10 µg/mL
B12	> 10 µg/mL

target: SARS-CoV-2 Omicron BA.2.75 spike pseudovirus; experiment: as above
Method: as §1

Binder	pseudovirus neutralization IC50
B1	> 10 µg/mL
B2	> 10 µg/mL
B3	> 10 µg/mL
B4	> 10 µg/mL
B5	5.99 µg/mL
B6	> 10 µg/mL
B7	> 10 µg/mL
B8	> 10 µg/mL
B9	> 10 µg/mL
B10	> 10 µg/mL
B11	> 10 µg/mL
B12	> 10 µg/mL

target: SARS-CoV-2 Omicron BA.5 spike pseudovirus; experiment: as above
Method: as §1

Binder	pseudovirus neutralization IC50
B1	> 10 µg/mL
B2	> 10 µg/mL
B3	> 10 µg/mL
B4	> 10 µg/mL
B5	4.5 µg/mL
B6	> 10 µg/mL
B7	> 10 µg/mL
B8	> 10 µg/mL
B9	> 10 µg/mL
B10	> 10 µg/mL
B11	> 10 µg/mL
B12	> 10 µg/mL

target: SARS-CoV-2 Omicron BQ.1.1 spike pseudovirus; experiment: as above
Method: as §1

Binder	pseudovirus neutralization IC50
B1	> 10 µg/mL
B2	> 10 µg/mL
B3	> 10 µg/mL
B4	> 10 µg/mL
B5	3.91 µg/mL
B6	> 10 µg/mL
B7	> 10 µg/mL
B8	> 10 µg/mL
B9	> 10 µg/mL
B10	> 10 µg/mL
B11	> 10 µg/mL
B12	> 10 µg/mL

target: SARS-CoV-2 Omicron XBB spike pseudovirus; experiment: as above
Method: as §1

Binder	pseudovirus neutralization IC50
B1	> 10 µg/mL
B2	> 10 µg/mL
B3	> 10 µg/mL
B4	> 10 µg/mL
B5	4.77 µg/mL
B6	> 10 µg/mL
B7	> 10 µg/mL
B8	> 10 µg/mL
B9	> 10 µg/mL
B10	> 10 µg/mL
B11	> 10 µg/mL
B12	> 10 µg/mL

target: SARS-CoV-2 early D614G spike pseudovirus; experiment: as above
Method: as §1

Binder	pseudovirus neutralization IC50
B1	> 10 µg/mL
B2	> 10 µg/mL
B3	> 10 µg/mL
B4	> 10 µg/mL
B5	0.846 µg/mL
B6	> 10 µg/mL
B7	> 10 µg/mL
B8	> 10 µg/mL
B9	> 10 µg/mL
B10	> 10 µg/mL
B11	> 10 µg/mL
B12	> 10 µg/mL
